Measurements as given in US20260273042A1.

Molecular target: BG505 SOSIP T332N gp140 (soluble trimer) (HIV (strain BG505))
Assay: SPR (ligand and analyte not given)

**Q.** How did the Kd turn out when PGT128 (antibody) was run?
**A.** Its Kd is 0.017 µM.
